Results of unrelated studies side by side (data: NIAID ChemDB).

All rows: whole-cell or culture tests; agent: Hepatitis B virus; method: PCR; endpoint: EC50

ECn: concentration that inhibits the pathogen or its effect by n%.

compound | changes | conditions | cell line | result
C#CCNC(=O)C(=O)c1c(Cl)c(C(=O)Nc2ccc(F)c(C#N)c2)n(C)c1Br |  |  | HepG2.2.15 | 0.01–0.099 µM
COC(=O)C1=C(CN2CC(F)(F)[C@@H]3[C@H]2CON3CC(F)(F)C(C)(C)C(=O)O)NC(c2nccs2)=N[C@H]1c1ccc(F)c(F)c1C |  |  | HepG2.2.15 | 0.014 µM
Cc1c(C(=O)C(=O)NC2(c3cn[nH]c3)COC2)c(C)n(C)c1C(=O)Nc1ccc(F)c(C(F)(F)F)c1 |  |  | HepG2.2.15 | <0.001 µM
CNC(=O)c1ccc(-n2c(=O)c3c(n4ncc(N[C@@H](C)c5ccccc5)c24)CN(C(=O)c2ccc(Br)c(Cl)c2)CC3)cc1 |  | 3 d | HepG2.117 | <0.1 µM
CC1(c2nccs2)CN(C(=O)c2ccc(Br)c(Cl)c2)CCS1(=O)=O |  |  | HepG2.117 | 0.5–5 µM
CNC(=O)C(=O)N1CC[C@@H](NS(=O)(=O)c2cn(C3CC3)c(C(=O)Nc3ccc(F)c(F)c3)c2F)C1 |  |  | HepAD38 cells | <0.1 µM
Cc1cc(NC(=O)c2c3c(cn2C)S(=O)(=O)N[C@H]2CN(C(=O)C(=O)N[C@@H](C)C(F)(F)F)C[C@H]2CS3)ccc1F |  |  | HepAD38 | <0.5 µM
C#CCNC(=O)C(=O)c1c(C)c(C(=O)Nc2ccnc(Br)c2F)n(C)c1C |  |  | HepG2.2.15 | 0.001–0.0099 µM
CNC(=O)c1ccc(-n2c(=O)c3c(n4ncc(Cc5ccc(C#N)cc5F)c24)CN(C(=O)c2ccc(Br)c(Cl)c2)CC3)cc1 |  | 3 d | HepG2.117 | <0.1 µM
CCOC(=O)C1=C(CN2CC(F)(F)[C@H]3[C@@H]2CCN3C[C@@H](F)C(C)(C)C(=O)O)NC(c2nc(C)cs2)=N[C@H]1c1cccc(F)c1C |  |  | HepG2.2.15 | 0.001 µM
C#C[C@@](CO)(NC(=O)C(=O)c1c(C)c(C(=O)Nc2ccc(F)c(C#N)c2)n(C)c1C)C(F)(F)F |  |  | HepG2.2.15 | 0.001–0.0099 µM
O=C(c1ccc(Br)c(Cl)c1)N1CCS(=O)(=O)[C@@](F)(c2ncc(Cc3ccccc3)o2)C1 |  |  | HepG2.117 | <0.1 µM
Cc1cc(NC(=O)c2c3c(cn2C)S(=O)(=O)N[C@H]2CN(C(=O)C(=O)N[C@H](C)C(F)(F)F)C[C@H]2CO3)ccc1F | T128I |  | HepG2 | 0.00891 µM
Cc1cc2cc(-n3c(C(=O)NCc4ccccc4)c4n(c3=O)CCN(C(=O)c3ccc(Br)c(Cl)c3)C4)ccc2o1 |  |  | HepG2.117 | 0.1–0.5 µM
Cc1cc(NC(=O)c2c3c(cn2C)S(=O)(=O)N[C@H]2CN(C(=O)C(=O)NCC(F)(F)F)C[C@H]2CS3)ccc1F |  |  | HepAD38 | <0.5 µM
CCc1cc(OC)ccc1CNC(=O)c1c2n(c(=O)n1-c1ccc(OC)cc1)CCN(C(=O)c1ccc(Br)c(Cl)c1)C2 |  |  | HepG2.117 | 0.1–0.5 µM
Cc1cc(NC(=O)c2c3c(cn2C)S(=O)(=O)N[C@H]2CN(C(=O)C(=O)NCC4CC4)C[C@H]2CO3)ccc1F |  |  | HepAD38 | <0.5 µM
CCOC(=O)C1=C(CN2CC(F)(F)[C@@H]3[C@H]2CON3CCC(C)(F)C(=O)O)NC(c2nccs2)=N[C@H]1c1cccc(F)c1C |  |  | HepG2.2.15 | 0.26 µM
N#Cc1cc(C(=O)N2CCc3c(n4ncc(Cc5ccccc5)c4n(-c4ccc(-c5ncc[nH]5)cc4)c3=O)C2)ccc1Br |  | 3 d | HepG2.117 | 0.5–5 µM
C[C@H](c1cnc([C@]2(F)CN(C(=O)c3ccc(Br)c(Cl)c3)CCS2(=O)=O)s1)c1ccccc1F |  |  | HepG2.117 | 0.5–5 µM
Cn1cc(S(=O)(=O)N[C@@H]2CCN(C(=O)C(=O)NC3COC3)C2)c(F)c1C(=O)Nc1cc(F)c(F)c(F)c1 |  |  | HepAD38 cells | <0.1 µM
CNC(=O)c1ccc(-n2c(=O)c3c(n4ncc(NCc5ccc(F)cc5)c24)CN(C(=O)c2ccc(Br)c(Cl)c2)CC3)cc1 |  | 3 d | HepG2.117 | <0.1 µM
COc1ccc(-n2c(C(=O)NCc3ccccn3)c3n(c2=O)CCN(C(=O)c2ccc(Br)c(Cl)c2)C3)cc1 |  |  | HepG2.117 | 0.5–5 µM
CCOC(=O)C1=C(CN2CC(F)(F)[C@@H]3[C@H]2CON3C[C@H](OC)C(C)(C)C(=O)O)NC(c2nccs2)=N[C@@H]1c1ccc(F)c(F)c1C |  |  | HepG2.2.15 | 0.001 µM
N#Cc1ccc(CNC(=O)c2c3n(c(=O)n2-c2ccc(OCC(F)(F)F)cc2)CCN(C(=O)c2ccc(Br)c(Cl)c2)C3)c(F)c1 |  |  | HepG2.117 | 0.5–5 µM
Cc1cnc(C2CN(C(=O)c3ccc(Br)c(Cl)c3)CCS2(=O)=O)s1 |  |  | HepG2.117 | <0.1 µM
CNC(=O)c1ccc(-n2c(=O)c3c(n4ncc(Cc5ccc(F)cc5)c24)CN(C(=O)c2ccc(Br)c(C#N)c2)CC3)cc1 |  | 3 d | HepG2.117 | <0.1 µM
CNC(=O)C(=O)N1CCC2CC2(NS(=O)(=O)c2cn(C)c(C(=O)Nc3cc(F)c(F)c(F)c3)c2F)C1 |  |  | HepAD38 cells | <0.1 µM
COC(=O)C1=C(CN2CC(F)(F)[C@@H]3[C@H]2CON3CC[C@@](C)(O)C(=O)O)NC(c2nccs2)=N[C@H]1c1ccc(F)c(F)c1C |  |  | HepG2.2.15 | 0.319 µM
Cc1c(C(=O)C(=O)NC(C)(C)c2cscn2)c(C)n(C)c1C(=O)Nc1ccc(F)c(C(F)(F)F)c1 |  |  | HepG2.2.15 | 0.001–0.0099 µM
Cc1cc(NC(=O)c2c3c(cn2C)S(=O)(=O)NC2CN(C(=O)C(=O)N[C@H](C)C(F)(F)F)CC2(C)CO3)ccc1F |  |  | HepAD38 | <0.5 µM
O=C(c1ccc(Br)c(Cl)c1)N1CCS(=O)(=O)[C@H](c2ccccc2)C1 |  |  | HepG2.117 | 0.5–5 µM
C#CC1(NC(=O)C(=O)c2c(C)c(C(=O)Nc3ccc(F)c(C(F)F)c3)n(C)c2C)CC(F)(F)C1 |  |  | HepG2.2.15 | 0.001–0.0099 µM
COc1ccc([C@@H](C)NC(=O)c2c3n(c(=O)n2-c2ccc(OC4CC4)cc2)CCN(C(=O)c2ccc(Br)c(Cl)c2)C3)cc1 |  |  | HepG2.117 | 0.1–0.5 µM
CCOC(=O)C1=C(CN2CC(F)(F)[C@@H]3[C@H]2CON3C[C@@H](F)C(C)(C)C(=O)O)NC(c2nc(C)cs2)=N[C@H]1c1cccc(F)c1C |  |  | HepG2.2.15 | 0.008 µM
C[C@@H](NC(=O)C(=O)N1C[C@H]2COc3c(cn(C)c3C(=O)Nc3ccc(F)c(Cl)c3)S(=O)(=O)N[C@H]2C1)C(F)(F)F |  |  | HepAD38 | <0.5 µM
C[C@@H]1CS(=O)(=O)[C@@H](c2cccs2)CN1C(=O)c1ccc(Br)c(Cl)c1 |  |  | HepG2.117 | 0.5–5 µM
COc1ccc(CNC(=O)c2c3n(c(=O)n2-c2ccccc2)CCN(C(=O)c2ccc(Br)c(Cl)c2)C3)cc1OC |  |  | HepG2.117 | 0.1–0.5 µM
CCOC(=O)C1=C(CN2CC(F)(F)[C@H]3[C@@H]2CCN3CC[C@@](C)(O)C(=O)O)NC(c2nccs2)=N[C@H]1c1ccc(F)c(F)c1C |  |  | HepG2.2.15 | 0.011 µM
C#C[C@@H](NC(=O)C(=O)c1c(C)c(C(=O)Nc2ccc(F)c(C#N)c2)n(C)c1C)OC |  |  | HepG2.2.15 | 0.001–0.0099 µM
CCNC(=O)C(=O)N1CC[C@@H](NS(=O)(=O)c2cn(C)c(C(=O)Nc3cc(F)c(F)c(F)c3)c2Cl)C(F)(F)C1 |  |  | HepAD38 cells | <0.1 µM
CNC(=O)c1ccc(-n2c(=O)c3c(n4ncc(Cc5ccccc5)c24)CN(C(=O)c2ccc(Br)c(C#N)c2)[C@@H](C)C3)cc1 |  | 3 d | HepG2.117 | 0.1–0.5 µM
O=C(c1ccc(Cl)c(Cl)c1)N1CCS(=O)(=O)[C@H](c2cccs2)C1 |  |  | HepG2.2.15 | 0.1–0.5 µM
CCOC(=O)C1=C(CN2CC(F)(F)[C@H]3[C@@H]2CCN3C[C@H](OC)C(C)(C)C(=O)O)NC(c2nc(C)cs2)=N[C@H]1c1cccc(F)c1C |  |  | HepG2.2.15 | 0.014 µM
N#Cc1cc(C(=O)N2CCS(=O)(=O)[C@](F)(c3ncc(Cc4ccccc4-c4ncccn4)s3)C2)ccc1Br |  |  | HepG2.117 | 0.5–5 µM
Cc1c(C(=O)C(=O)NC2(c3cnc[nH]3)COC2)c(C)n(C)c1C(=O)Nc1ccc(F)c(C(F)(F)F)c1 |  |  | HepG2.2.15 | <0.001 µM

For reference, 5 entries again:

compound | changes | conditions | cell line | result
N#Cc1cc(C(=O)N2CCc3c(n4ncc(Cc5ccccc5)c4n(-c4ccc(-c5ncc[nH]5)cc4)c3=O)C2)ccc1Br |  | 3 d | HepG2.117 | 0.5–5 µM
N#Cc1ccc(CNC(=O)c2c3n(c(=O)n2-c2ccc(OCC(F)(F)F)cc2)CCN(C(=O)c2ccc(Br)c(Cl)c2)C3)c(F)c1 |  |  | HepG2.117 | 0.5–5 µM
CCNC(=O)C(=O)N1CC[C@@H](NS(=O)(=O)c2cn(C)c(C(=O)Nc3cc(F)c(F)c(F)c3)c2Cl)C(F)(F)C1 |  |  | HepAD38 cells | <0.1 µM
Cc1cc2cc(-n3c(C(=O)NCc4ccccc4)c4n(c3=O)CCN(C(=O)c3ccc(Br)c(Cl)c3)C4)ccc2o1 |  |  | HepG2.117 | 0.1–0.5 µM
Cn1cc(S(=O)(=O)N[C@@H]2CCN(C(=O)C(=O)NC3COC3)C2)c(F)c1C(=O)Nc1cc(F)c(F)c(F)c1 |  |  | HepAD38 cells | <0.1 µM

Rows are shuffled and stem from different studies. a–b is a range or a potency band. An empty or dashed field is not shown.